{"source": "PubChem BioAssay AID1259414 (Drosophila RNAi Screening Center, 2018)", "assay": "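Host factors increasing or decreasing Wolbachia levels in cultured fly cells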 (primary screen)", "cell system": "Drosophila JW18 cells infected with Wolbachia", "reagent": "long dsRNA against Drosophila genes, 0.25 µg dsRNA per well of a 384-well plate", "duration": "5 days", "treatment": "cells persistently infected with Wolbachia before knock-down; no added drug", "read-out": "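Imaged fluorescence in situ signal for Wolbachia 23S rRNA per DAPI-counted host cell, given as a robust z-score within each plate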", "reading the numbers": "Wolbachia per cell robust z: higher = more Wolbachia per host cell than the plate typical", "active means": "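Hit when robust z is 1.5 or more, or -1.5 or less, in at least two of three replicates; excludes dsRNAs with several or no targets, genes not expressed in JW18 and well A1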", "note": "In all, the deposit lists about 24,000 reagents; below is a random part of those that have a named target and a result. Of all reagents, about 1,210 (5%) got an active call. 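Inactive calls also include excluded dsRNAs with several or no targets, genes unexpressed in JW18, and well A1, regardless of score.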 Unmarked entries are inactive. The numbers tell different reagents against one gene apart."}
{"target": "CG5693", "reagent no.": 1, "Wolbachia per cell robust z, rep 1": 0.0695, "Wolbachia per cell robust z, rep 2": 0.334, "Wolbachia per cell robust z, rep 3": 2.4}
{"target": "Hrs", "reagent no.": 1, "Wolbachia per cell robust z, rep 1": -0.187, "Wolbachia per cell robust z, rep 2": 0.0944, "Wolbachia per cell robust z, rep 3": 0.0238}
{"target": "Hrs", "reagent no.": 2, "Wolbachia per cell robust z, rep 1": 0.85, "Wolbachia per cell robust z, rep 2": -0.00125, "Wolbachia per cell robust z, rep 3": -0.119}
{"target": "Blos3", "reagent no.": 1, "Wolbachia per cell robust z, rep 1": 0.83, "Wolbachia per cell robust z, rep 2": 0.838, "Wolbachia per cell robust z, rep 3": -1.06}
{"target": "Blos3", "reagent no.": 2, "Wolbachia per cell robust z, rep 1": -3.1, "Wolbachia per cell robust z, rep 2": 0.404, "Wolbachia per cell robust z, rep 3": -0.717}
{"target": "Src42A", "reagent no.": 1, "Wolbachia per cell robust z, rep 1": 0.152, "Wolbachia per cell robust z, rep 2": -1.35, "Wolbachia per cell robust z, rep 3": 0.786}
{"target": "Src42A", "reagent no.": 2, "Wolbachia per cell robust z, rep 1": 1.53, "Wolbachia per cell robust z, rep 2": 1.62, "Wolbachia per cell robust z, rep 3": 2.43}
{"target": "Src42A", "reagent no.": 3, "Wolbachia per cell robust z, rep 1": 0.00427, "Wolbachia per cell robust z, rep 2": -0.863, "Wolbachia per cell robust z, rep 3": 0.445}
{"target": "Src42A", "reagent no.": 4, "Wolbachia per cell robust z, rep 1": 0.374, "Wolbachia per cell robust z, rep 2": -1.59, "Wolbachia per cell robust z, rep 3": -4.14}
{"target": "Npc2h", "reagent no.": 1, "Wolbachia per cell robust z, rep 1": 0.76, "Wolbachia per cell robust z, rep 2": 0.273, "Wolbachia per cell robust z, rep 3": 0.138}
{"target": "CG6791", "reagent no.": 1, "Wolbachia per cell robust z, rep 1": -0.547, "Wolbachia per cell robust z, rep 2": -0.443, "Wolbachia per cell robust z, rep 3": -5.85}
{"target": "CG6791", "reagent no.": 2, "Wolbachia per cell robust z, rep 1": -0.0222, "Wolbachia per cell robust z, rep 2": -4.55, "Wolbachia per cell robust z, rep 3": -0.865}
{"target": "CG12713", "reagent no.": 1, "Wolbachia per cell robust z, rep 1": -0.085, "Wolbachia per cell robust z, rep 2": -0.908, "Wolbachia per cell robust z, rep 3": -0.334}
{"target": "CG12713", "reagent no.": 2, "Wolbachia per cell robust z, rep 1": "-6.25 (active)", "Wolbachia per cell robust z, rep 2": -8.62, "Wolbachia per cell robust z, rep 3": -0.874}
{"target": "CG3739", "reagent no.": 1, "Wolbachia per cell robust z, rep 1": 0.826, "Wolbachia per cell robust z, rep 2": -5.54, "Wolbachia per cell robust z, rep 3": -0.621}
{"target": "CG42554", "reagent no.": 1, "Wolbachia per cell robust z, rep 1": -0.0468, "Wolbachia per cell robust z, rep 2": 1.06, "Wolbachia per cell robust z, rep 3": 0.487}
{"target": "CG3342", "reagent no.": 1, "Wolbachia per cell robust z, rep 1": -4.72, "Wolbachia per cell robust z, rep 2": 0.857, "Wolbachia per cell robust z, rep 3": -0.00468}
{"target": "CG3342", "reagent no.": 2, "Wolbachia per cell robust z, rep 1": -0.138, "Wolbachia per cell robust z, rep 2": -0.385, "Wolbachia per cell robust z, rep 3": -2.59}
{"target": "CG8349", "reagent no.": 1, "Wolbachia per cell robust z, rep 1": 0.329, "Wolbachia per cell robust z, rep 2": -0.259, "Wolbachia per cell robust z, rep 3": 0.786}
{"target": "Obp57a", "reagent no.": 1, "Wolbachia per cell robust z, rep 1": -2.42, "Wolbachia per cell robust z, rep 2": 0.484, "Wolbachia per cell robust z, rep 3": 0.66}
{"target": "Obp57a", "reagent no.": 2, "Wolbachia per cell robust z, rep 1": 0.83, "Wolbachia per cell robust z, rep 2": -0.364, "Wolbachia per cell robust z, rep 3": 0.151}
{"target": "Srp72", "reagent no.": 1, "Wolbachia per cell robust z, rep 1": -0.648, "Wolbachia per cell robust z, rep 2": -0.148, "Wolbachia per cell robust z, rep 3": -0.294}
{"target": "Srp72", "reagent no.": 2, "Wolbachia per cell robust z, rep 1": "-1.64 (active)", "Wolbachia per cell robust z, rep 2": -1.25, "Wolbachia per cell robust z, rep 3": -1.57}
{"target": "CG42272", "reagent no.": 1, "Wolbachia per cell robust z, rep 1": 0.243, "Wolbachia per cell robust z, rep 2": 0.361, "Wolbachia per cell robust z, rep 3": -8.13}
{"target": "CG42272", "reagent no.": 2, "Wolbachia per cell robust z, rep 1": -1.2, "Wolbachia per cell robust z, rep 2": 0.418, "Wolbachia per cell robust z, rep 3": 0.773}
{"target": "CG42272", "reagent no.": 3, "Wolbachia per cell robust z, rep 1": "-2.25 (active)", "Wolbachia per cell robust z, rep 2": -2.02, "Wolbachia per cell robust z, rep 3": -5.37}
{"target": "CG42272", "reagent no.": 4, "Wolbachia per cell robust z, rep 1": 0.522, "Wolbachia per cell robust z, rep 2": 0.0276, "Wolbachia per cell robust z, rep 3": 0.352}
{"target": "CG13138", "reagent no.": 1, "Wolbachia per cell robust z, rep 1": 0.641, "Wolbachia per cell robust z, rep 2": -3.86, "Wolbachia per cell robust z, rep 3": 0.14}
{"target": "ghi", "reagent no.": 1, "Wolbachia per cell robust z, rep 1": -0.179, "Wolbachia per cell robust z, rep 2": 0.0764, "Wolbachia per cell robust z, rep 3": -0.715}
{"target": "DCP1", "reagent no.": 1, "Wolbachia per cell robust z, rep 1": -0.277, "Wolbachia per cell robust z, rep 2": 0.137, "Wolbachia per cell robust z, rep 3": -5.04}
{"target": "DCP1", "reagent no.": 2, "Wolbachia per cell robust z, rep 1": "-6.73 (active)", "Wolbachia per cell robust z, rep 2": -7.06, "Wolbachia per cell robust z, rep 3": -2.55}

Reagents listed so far marked active (4):
{"target": "CG12713", "reagent no.": 2, "Wolbachia per cell robust z, rep 1": "-6.25 (active)", "Wolbachia per cell robust z, rep 2": -8.62, "Wolbachia per cell robust z, rep 3": -0.874}
{"target": "Srp72", "reagent no.": 2, "Wolbachia per cell robust z, rep 1": "-1.64 (active)", "Wolbachia per cell robust z, rep 2": -1.25, "Wolbachia per cell robust z, rep 3": -1.57}
{"target": "CG42272", "reagent no.": 3, "Wolbachia per cell robust z, rep 1": "-2.25 (active)", "Wolbachia per cell robust z, rep 2": -2.02, "Wolbachia per cell robust z, rep 3": -5.37}
{"target": "DCP1", "reagent no.": 2, "Wolbachia per cell robust z, rep 1": "-6.73 (active)", "Wolbachia per cell robust z, rep 2": -7.06, "Wolbachia per cell robust z, rep 3": -2.55}
